PubChem BioAssay AID1259414 | Drosophila RNAi Screening Center | 2018
The deposit covers about 24,000 reagents; this is a random part of those with a known target gene and a result. In the full data, about 1,210 (5%) are marked active. 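Inactive calls also include excluded dsRNAs with several or no targets, genes unexpressed in JW18, and well A1, regardless of score.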 Unmarked entries are inactive. A plus sign joins genes that one reagent is predicted to hit. Reagent sequences are not shown.

Aim: 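Host factors increasing or decreasing Wolbachia levels in cultured fly cells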 (primary screen)
Cells: Drosophila JW18 cells infected with Wolbachia
Reagents: long dsRNA against Drosophila genes, 0.25 µg dsRNA per well of a 384-well plate
Time to read-out: 5 days
Conditions: cells persistently infected with Wolbachia before knock-down; no added drug
Measurement: 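Imaged fluorescence in situ signal for Wolbachia 23S rRNA per DAPI-counted host cell, given as a robust z-score within each plate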
Direction: Wolbachia per cell robust z: higher = more Wolbachia per host cell than the plate typical
Rule for the call: 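Hit when robust z is 1.5 or more, or -1.5 or less, in at least two of three replicates; excludes dsRNAs with several or no targets, genes not expressed in JW18 and well A1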

gene	dsRNA	Wolbachia per cell robust z, rep 1	Wolbachia per cell robust z, rep 2	Wolbachia per cell robust z, rep 3
CG12111	DRSC17808	0.217	-4.53	0.813
CG12111	DRSC26511	0.32	-0.141	-2.11
s-cup	DRSC06277	0.253	-1.27	0.255
s-cup	DRSC06278	-0.386	0.199	0.296
s-cup	DRSC24270	0.73	1.27	2.18
CG13527	DRSC04169	-6.09	-3.03	0.0594
CG33306	DRSC01899	-0.179	0.308	-0.0123
CG33306	DRSC29187	0.375	-0.0263	1.21
CG6712	DRSC02981	-0.0952	-0.743	-0.407
CG6712	DRSC21690	0.269	0.107	0.0954
Arfip	DRSC15179	0.378	0.158	-0.676
Arfip	DRSC27068	-0.744	-1.01	-1.17
His-Psi:CR31616 + His-Psi:CR31615	DRSC03760	1.88	2.45	0.593
CG12640	DRSC17847	0.165	-0.0253	-1.17
CG12640	DRSC26324	-1.21	0.316	0.106
CG14568	DRSC11729	1.23	-0.816	0.597
BTBD9	DRSC18148	0.342	-0.63	-1.62
BTBD9	DRSC22371	-0.863	0.596	0.437
CG12828	DRSC06177	-1.87	-0.152	1.18
ATPsynCF6	DRSC14092	0.299	0.894	-4.17
CG7017	DRSC10762	-0.584	-0.836	-1.1
Enoph	DRSC12201	-1.25	-0.171	0.986
Enoph	DRSC41413	0.472	0.4	-0.697
Pex23	DRSC10323	-1.06	-5.96	-0.744
Pex23	DRSC10645	0.258	0.328	-0.119
Pex23	DRSC28370	0.0743	-1.67	-0.363
CG16894	DRSC06634	-3.29	-1.37	-2.37
CG16894	DRSC21785	-0.793	-0.751	-1.68
